Pooled drug test results. Numbers come from NIAID ChemDB, via PubChem.

Shared fields: tests on isolated targets; organism: HIV-1; target: Reverse transcriptase

Fold resistance has wild type as its base. ICn: concentration for n% inhibition. An empty or dashed field is not shown. Conditions beyond the fields shown may differ between rows.

structure | method | strain or isolate | endpoint | mutations | value
CC(C)(C)c1ccc(-n2nnnc2SCC(=O)Nc2ccc(-c3ccc(OCCN4CCC(O)CC4)cc3)cc2Cl)c(Cl)c1 | PicoGreen / fluorescence | - | IC50 | RT-K103 Y181C | <1 µM
Cc1ccc2c(c1)CCN(c1nn3c(C4CC4)nnc3c3ccccc13)C2 | RT activity / fluorescence | IIIB | IC50 | - | 0.19 µM
NCCCCNc1nc(Cc2ccccc2)cc(=O)[nH]1 | - | - | Ki | RT-L100I | 95 µM
c1ccc2c(c1)c(N1CCc3[nH]ccc3C1)nn1c(C3CC3)nnc21 | RT activity / fluorescence | IIIB | IC50 | - | 3.7 µM
CCN1c2ncc(CCOc3ccc(NC(=O)NCC(=O)O)cc3C)cc2C(=O)N(C)c2cccnc21 | nucleotide incorporation / radiometric | IIIB | IC50 | - | <0.05 µM
COC(=O)C1CCN(CCOc2ccc(NC(=O)CSc3nnnn3-c3ccc(C(C)(C)C)cc3Cl)c(Cl)c2)CC1 | PicoGreen / fluorescence | WT | IC50 | - | <1 µM
Cc1nnc2c3ccccc3c(N3CCc4ccc(C(=O)O)cc4C3)nn12 | RT activity / fluorescence | 98US_MSC5016 | IC50 | - | 25.9 µM
CCc1cc(CCc2nc3ccccc3o2)c(=O)[nH]c1C | nucleotide incorporation | - | fold resistance | RT-Y188C | 31
CCN1c2ncc(CCOc3ccc(S(=O)(=O)Nc4ccc(C(=O)O)cc4)cc3C)cc2C(=O)N(C)c2cccnc21 | nucleotide incorporation / radiometric | IIIB | IC50 | - | <0.05 µM
CC(C)(C)c1ccc(-n2nnnc2SCC(=O)Nc2ccc(NC(=O)Cn3cnnn3)cc2Cl)c(Cl)c1 | PicoGreen / fluorescence | WT | IC50 | - | <1 µM
CCN1c2ncc(CCOc3ccc(C(=O)N(C)c4ccc(C(=O)O)cc4)cc3C)cc2C(=O)N(C)c2cccnc21 | nucleotide incorporation / radiometric | IIIB | IC50 | - | <0.05 µM
COC(=O)/C=C/c1ccc(NC(=O)CSc2nnnn2-c2ccc(C)cc2Cl)c(Cl)c1 | PicoGreen / fluorescence | - | IC50 | RT-K103 Y181C | <1 µM
CCN1c2ncc(CCOc3ccc(-c4ccnc(C)c4)cc3C)cc2C(=O)N(C)c2cccnc21 | nucleotide incorporation / radiometric | IIIB | fold resistance | RT-K103N Y181C | 1
COc1ccc2c(c1)CCN(c1nn3c(C4CC4)nnc3c3ccccc13)C2 | RT activity / fluorescence | 98US_MSC5016 | IC90 | - | 3.28 µM
CCN1c2ncc(CCOc3ccc(-c4cncc(C(=O)O)c4)cc3C)cc2C(=O)N(C)c2cccnc21 | nucleotide incorporation / radiometric | IIIB | IC50 | RT-K103N Y181C | <0.05 µM
CC(C)(C#Cc1ccc(NC(=O)CSc2nnnn2-c2ccc(C3CC3)cc2Cl)c(Cl)c1)C(=O)NCCN1CCCC1 | PicoGreen / fluorescence | - | IC50 | RT-K103 Y181C | <1 µM
COC(=O)NCCCCNc1nc(Cc2ccccc2)c(C)c(=O)[nH]1 | - | - | fold resistance | RT-Y188L | >43.5
CC(C)(C#Cc1ccc(NC(=O)CSc2nnnn2-c2ccc(C3CC3)cc2Cl)c(Cl)c1)C(=O)NS(=O)(=O)C1CC1 | PicoGreen / fluorescence | WT | IC50 | - | <1 µM
Cc1nnc2c3ccccc3c(N3CCc4c(F)cccc4C3)nn12 | RT activity / fluorescence | 98US_MSC5016 | IC90 | - | 19.4 µM
CC(C)(C)c1ccc(-n2nnnc2SCC(=O)Nc2ccc(NC(=O)Cc3c(Cl)cccc3Cl)cc2Cl)c(Cl)c1 | PicoGreen / fluorescence | - | IC50 | RT-K103 Y181C | <1 µM
O=c1cc(Cc2ccccc2)nc(SCCCCO)[nH]1 | - | - | fold resistance | RT-K103N | >10
CC(C)(C#Cc1ccc(NC(=O)CSc2nnnn2-c2ccc(C(C)(C)C)cc2Cl)c(Cl)c1)OCC(=O)Nc1ccncc1 | PicoGreen / fluorescence | WT | IC50 | - | <1 µM
c1ccc2c(c1)CCN(c1nn3c(C4CC4)nnc3c3ccccc13)C2 | RT activity / fluorescence | KER2008 | IC90 | - | 5.64 µM
CCN1c2ncc(CCOc3ccc(C(=O)Nc4cccn(CC(=O)O)c4=O)cc3C)cc2C(=O)N(C)c2cccnc21 | nucleotide incorporation / radiometric | IIIB | IC50 | - | <0.05 µM
FC(F)c1nnc2c3ccccc3c(N3CCc4ccccc4C3)nn12 | RT activity / fluorescence | 98US_MSC5016 | IC90 | - | 1.61 µM
CCN1c2ncc(CCOc3ccc(-c4ccc(C(=O)O)c(F)c4)cc3C)cc2C(=O)N(C)c2cccnc21 | nucleotide incorporation / radiometric | IIIB | IC50 | - | <0.05 µM
CC(C)(C)c1ccc(-n2nnnc2SCC(=O)Nc2ccc(C#CCCC(=O)O)cc2Cl)c(Cl)c1 | PicoGreen / fluorescence | WT | IC50 | - | <1 µM
Nc1cc2c(cc1F)CN(c1nn3c(C4CC4)nnc3c3ccccc13)CC2 | RT activity / fluorescence | 98US_MSC5016 | IC90 | - | 2.57 µM

The first 4 rows once more:

{"structure": "CC(C)(C)c1ccc(-n2nnnc2SCC(=O)Nc2ccc(-c3ccc(OCCN4CCC(O)CC4)cc3)cc2Cl)c(Cl)c1", "method": "PicoGreen / fluorescence", "endpoint": "IC50", "mutations": "RT-K103 Y181C", "value": "<1 µM"}
{"structure": "Cc1ccc2c(c1)CCN(c1nn3c(C4CC4)nnc3c3ccccc13)C2", "method": "RT activity / fluorescence", "strain or isolate": "IIIB", "endpoint": "IC50", "value": "0.19 µM"}
{"structure": "NCCCCNc1nc(Cc2ccccc2)cc(=O)[nH]1", "endpoint": "Ki", "mutations": "RT-L100I", "value": "95 µM"}
{"structure": "c1ccc2c(c1)c(N1CCc3[nH]ccc3C1)nn1c(C3CC3)nnc21", "method": "RT activity / fluorescence", "strain or isolate": "IIIB", "endpoint": "IC50", "value": "3.7 µM"}